Results of unrelated studies side by side (data: NIAID ChemDB).

Common to all: tests in culture; species: HIV-1; read-out: inhibition

a–b is a range or a potency band. Percent inhibition refers to the dose given; in toxicity tests it is the harm to the cells. Blank or dashed fields: not listed here. Lines come from different laboratories, so protocols vary.

| smiles | mutations | cell line | read by | tested at | conditions | strain | result |
|---|---|---|---|---|---|---|---|
| Nc1nc2c(ncn2[C@H]2CC[C@@H](CO)O2)c(=O)[nH]1 | - | MT-2 | syncytia | 0.01 µM | - | IIIB | 28% |
| COC(=O)C(O)[C@H]1C(C)(C)[C@H](OC(C)=O)[C@]2(O)C=C3C4=CC(=O)O[C@@H](c5ccoc5)[C@]4(C)CC[C@@H]3[C@@]1(C)C2=O | - | SupT1 | luciferase / luminescence | 20 µM | pseudotyped | NL4-3 | 0% |
| Cc1nc(C(=O)C2CSCCN2)cc2c3ccccc3n(Cc3ccc(F)cc3)c12 | - | CEM-GFP | p24 / ELISA / antigen | 23.84 µM | - | NL4-3 | 0% |
| COc1ccc(S(=O)(=O)N(CC(C)C)C[C@@H](O)[C@H](Cc2ccccc2)NC(=O)O[C@H]2CO[C@H]3OCC[C@H]32)cc1 | - | H9 | p24 | 0.001 µM | - | IIIB | 90% |
| C[C@H]1[C@H](O)[C@@H](C)/C=C/C=C/C=C/C=C/C=C/C=C/C=C/[C@H](O[C@@H]2O[C@H](C)[C@@H](O)[C@H](N)[C@@H]2O)C[C@@H]2O[C@](O)(C[C@@H](O)C[C@@H](O)CC[C@H](O)[C@@H](O)C[C@@H](O)CC(=O)O[C@H]1C)C[C@H](O)[C@H]2C(=O)O | - | H9 | RT activity | 10 µg/mL | - | - | 86% |
| CCCCCCCCCc1ccc(OCCOCCOCCOCCOCCOCCOCCOCCOCCO)cc1 | - | MT-4 | XTT / p24 | 10 µg/mL | - | - | 100% |
| CC(=O)N1CCC(C(=O)N(CCCN2CCC(Cc3ccc(C(N)=O)cc3)CC2)c2ccc(C)c(Cl)c2)CC1 | - | PBMC | p24 | 0.012 µM | - | KK R5 clinical isolate | 90% |
| Cc1c(C(=O)NN2CCCCC2)nn(-c2ccc(Cl)cc2Cl)c1-c1ccc(Cl)cc1 | - | Jurkat cells | luciferase | 5 µM | - | NL4-3-Luc VSV pseudotyped | 26% |
| Cc1cn([C@H]2CC[C@@H](CO)O2)c(=O)[nH]c1=O | - | ATH8 | cytopathic effect / trypan blue | 200 µM | - | IIIB Laboratory strain | 77% |
| Cc1ccc(CNC(=O)c2ccc3nc(-c4ccccn4)n(C)c(=O)c3c2O)cc1 | - | TZM-bl | MTT | 10 µM | - | - | >0% |
| Oc1ccc(/C=C/c2cc(O)cc(O)c2)cc1 | - | MDM | p24 | 10 µM | - | SF162 | 40–60% |
| CO[C@@H]1[C@@H](O)[C@@H](O)[C@H](O)[C@H](O)[C@H]1n1cnc2c(N)ncnc21 | - | MT-4 | cytopathic effect / MTT | 10 µg/mL | - | IIIB | 32.6% |
| Nc1nc(NC2CC2)c2ncn([C@H]3C=C[C@@H](CO)O3)c2n1 | RT-L74V | PBMC | cytopathic effect / MTT | 74 µM | - | BRU PITT.(RT-L74V) | 90% |
| C#CCn1c2ccccc2c2cc(C(=O)C3CSCCN3)nc(C)c21 | - | CEM-GFP | p24 / ELISA / antigen | 21.46 µM | - | NL4-3 | 0% |
| N[C@@H](CCC(=O)N[C@@H](CS)C(=O)NCC(=O)O)C(=O)O | - | U-937 | p24 | 3000 µM | - | IIIB | 20% |
| CC(C)=CCCn1c2ccccc2c2cc(C(=O)C3CSCCN3)nc(C)c21 | - | CEM-GFP | p24 / ELISA / antigen | 19.76 µM | - | NL4-3 | 0% |
| Cc1c(N)nc([C@H](CC(N)=O)NC[C@H](N)C(N)=O)nc1C(=O)N[C@H](C(=O)N[C@H](C)[C@@H](O)[C@H](C)C(=O)N[C@H](C(=O)NCCc1nc(-c2nc(C(=O)NCCC[S+](C)C)cs2)cs1)[C@@H](C)O)C(O[C@@H]1O[C@@H](CO)[C@@H](O)[C@H](O)[C@@H]1O[C@H]1O[C@H](CO)[C@@H](O)[C@H](OC(N)=O)[C@@H]1O)c1cnc[nH]1 | - | Macrophage + Monocytes/macrophages | XTT / p24 | 0.3 µg/mL | - | BaL | 39% |
| CCCCC/C=C\C/C=C\C/C=C\C/C=C\CCCC(=O)NCCc1ccc(O)c(O)c1 | - | PBMC | luciferase | 1 µM | - | NL4-3-Luc VSV pseudotyped | 62% |
| Cc1ccc(-c2ccc3c(c2)C=C(C(=O)Nc2ccc(C[N+](C)(C)C4CCOCC4)cc2)CCC3)cc1 | - | PBMC | p24 | 0.0128 µM | - | BaL | 90% |
| O=C(O)P(=O)(O)O | - | H9 | RT activity | 50 µg/mL | - | - | 86% |
| Nc1nc2c(ncn2[C@H]2C=C[C@@H](CO)C2)c(=O)[nH]1 | - | MT-2 | cytopathic effect / XTT | 4.36 µg/mL | - | - | 16.5% |
| CN=C1CN=C(c2ccc[nH]2)c2cc(Cl)ccc2N1 | - | HT4 + HT4-6C | syncytia | 10 µM | - | LAV-1 | 99% |
| CO[C@@H]1[C@@H](O)[C@@H](O)[C@H](O)[C@H](O)[C@H]1n1ccc(N)nc1=O | - | MT-4 | cytopathic effect / MTT | 10 µg/mL | - | IIIB | 46.9% |
| Cc1cn([C@H]2C[C@H](N=[N+]=[N-])[C@@H](CO)O2)c(=O)[nH]c1=O | - | PBMC | p24 | 3.7 µM | - | Primary clinical isolate Rome | 70% |
| CC[C@H](C)[C@H](NC(=O)[C@H](C/C=C/c1ccccc1)C[C@H](O)[C@H](Cc1ccccc1)NC(=O)OC(C)(C)C)C(=O)NCc1nc2ccccc2[nH]1 | - | H9 | antigen | 0.012 µM | - | RF | 100% |
| Cc1nc2cc3nc4ccccc4cc3cc2s1 | - | MT-4 | trypan blue | 10 µg/mL | - | IIIB | 14.3% |
| Cc1cn([C@H]2C[C@H](N=[N+]=[N-])[C@@H](CO)O2)c(=O)[nH]c1=O | - | MT-2 | p24 | 0.026 µg/mL | - | IIIB | 70% |
| COc1c(C(=O)NCc2ccc(C)cc2)ccc2nc(Cc3ccc(F)cc3)n(C)c(=O)c12 | - | TZM-bl | MTT | 10 µM | - | - | >0% |
| Cc1cn([C@H]2C[C@H](N=[N+]=[N-])[C@@H](CO)O2)c(=O)[nH]c1=O | - | PBMC | p24 / RT activity | 0.0517 µM | - | BaL | 90% |
| O=C(O)P(=O)(O)O | - | H9 | p24 / antigen | 30 µM | 6 d | IIIB | 12% |
| OC[C@@H]1[C@@H](O)[C@H](O)[C@@H](O)CN1CCCc1ccccc1 | - | MOLT-4 | cell fusion | 40 µg/mL | - | IIIB | 89% |
| Nc1ccn([C@H]2CC[C@@H](CO)O2)c(=O)n1 | - | HT4 + HT4-6C | syncytia | 0.00316 µM | - | LAV-1 | 41% |
| Cc1c(-c2cnccn2)ssc1=S | - | H9 | MTT / p24 | 60 µM | - | IIIB | 90% |
| CO[C@H]1[C@@H](O)[C@H](n2cnc3c(N)ncnc32)[C@@H](O)[C@H](O)[C@@H]1O.O=C(O)/C=C/C(=O)O | - | MT-4 | cytopathic effect / MTT | 10 µg/mL | - | IIIB | 22.4% |
| C/C=C(\C)C(=O)O[C@H]1[C@@]2(C)C[C@]3(O)[C@@]1(O)[C@H]1OC4(C)O[C@@]5(C[C@H](O)[C@]6(C)C(=CC(=O)O[C@H]6c6ccoc6)[C@@]15O4)[C@]3(C)[C@H]2CC(=O)OC | - | SupT1 | luciferase / luminescence | 100 µM | pseudotyped | NL4-3 | 23.86% |
| c1cc(CN2CCCNCCNCCCNCC2)ccc1CN1CCCNCCNCCCNCC1 | - | PBMC | p24 | 0.28 µM | - | IIIB X4 laboratory isolate | 100% |
| CCCCC[C@H](O)/C=C/C1=C(CCCCCCC(=O)O)C(=O)CC1 | - | C8166 | syncytia | 40 µM | - | IIIB | 0% |
| O=S(=O)(O)c1cc(N=C=S)ccc1CCc1ccc(N=C=S)cc1S(=O)(=O)O | - | JM | syncytia | 50 µg/mL | - | GB8 | 100% |
| OC[C@H]1NC[C@@H](O)[C@@H](O)[C@@H]1O | - | U-937 | syncytia | 1000 µM | - | CLB 32 | 0% |
| CO[C@H]1[C@@H](O)[C@H](n2cnc3c(N)ncnc32)[C@@H](O)[C@H](O)[C@@H]1O | - | MT-4 | cytopathic effect / MTT | 10 µg/mL | - | IIIB | 68.4% |
| COC(=O)C(O)[C@H]1[C@]2(C)C[C@@]3(OC(=O)C(C)C)[C@]1(C)[C@H]1CC[C@]4(C)C(=CC(=O)O[C@H]4c4ccoc4)[C@@]1(O)[C@@]3(O)C(=O)[C@H]2OC(C)=O | - | SupT1 | luciferase / luminescence | 100 µM | pseudotyped | NL4-3 | 31.83% |
| Cc1cn([C@H]2C[C@H](N=[N+]=[N-])[C@@H](CO)O2)c(=O)[nH]c1=O | - | PBMC | p24 | 0.01 µM | - | BaL | 80% |
| Nc1ccn([C@H]2CC[C@@H](CO)O2)c(=O)n1 | - | CEM | virus yield | 0.001 µM | - | LAV-1 | 99% |
| Cc1cn([C@H]2C[C@H](N=[N+]=[N-])[C@@H](CO)O2)c(=O)[nH]c1=O | - | Jurkat cells | luciferase | 0.001 µM | - | NL4-3 Recombinant | 30% |
| c1cc(CN2CCCNCCNCCCNCC2)ccc1CN1CCCNCCNCCCNCC1 | - | PBMC | p24 | 0.1 µM | - | JR-FL CLADE B R5 | 36% |
| CCCCC[C@H](O)/C=C/[C@H]1[C@H](O)CC(=O)[C@@H]1C/C=C\CCCC(=O)O | - | C8166 | syncytia | 40 µM | - | IIIB | 0% |
| CC(C)Nc1cccnc1N1CCN(C(=O)c2cc3cc(NS(C)(=O)=O)ccc3[nH]2)CC1 | RT-P236L | MT-4 | antigen | 1 µM | - | HXBE30(RT-P236L) | 90% |
| COC(=O)C(N)CC(=O)COC(=O)[C@H]1O[C@H](O[C@H]2CC[C@]3(C)[C@H]4C(=O)C=C5[C@@H]6C[C@@](C)(C(=O)O)CC[C@]6(C)CC[C@@]5(C)[C@]4(C)CC[C@H]3C2(C)C)[C@H](O[C@@H]2O[C@H](C(=O)O)[C@@H](O)[C@H](O)[C@H]2O)[C@@H](O)[C@@H]1O.S | - | MT-4 | - | 250 µg/mL | - | - | 95.31% |
| CN=C1CN=C(c2ccc[nH]2)c2cc(Cl)ccc2N1 | - | PBL | p24 | 3 µM | - | N1T | 90% |
| CC(=O)OCOP(=O)(OCOC(C)=O)C(=O)Oc1ccc(Cl)cc1Cl | - | H9 | cytopathic effect / MTT | 8 µM | - | IIIB | >70% |
| COC(=O)[C@H](OC(C)=O)[C@H]1C(C)(C)[C@H](OC(=O)C(C)C)[C@]2(O)CC3=C4CC(=O)O[C@@H](c5ccoc5)[C@]4(C)CC[C@@H]3[C@@]1(C)C2=O | - | SupT1 | luciferase / luminescence | 100 µM | pseudotyped | NL4-3 | 53.74% |
| CCC[C@@]1(CCc2ccccc2)CC(O)=C([C@H](CC)c2cccc(NS(=O)(=O)c3ccc(C(F)(F)F)cn3)c2)C(=O)O1 | Ritonavir-resistant protease | PBMC | p24 | 0.2 µM | - | Isolate 301-1X ritonavir-susceptible | 90% |
| COC(=O)c1cc2c3ccccc3n3c(=O)ccc(n1)c23 | - | CEM-GFP | p24 / ELISA / antigen | 3.59 µM | - | NL4-3 | 0% |
| O=C(NCc1ccc(F)cc1)c1nc(N2CCCCS2(=O)=O)c2cccnc2c1O | - | PBMC | p24 | 0.009 µM | - | 89.6 | 95% |
| CC(C)[C@H](NC(=O)c1ccccn1)C(=O)N[C@@H](Cc1ccccc1)[C@H](O)[C@H](O)[C@H](Cc1ccccc1)NC(=O)[C@@H](NC(=O)c1ccccn1)C(C)C | PR-I84V | MT-4 | p24 | 48 µM | - | NL4-3 | 90% |
| CC(C)[C@H](NC(=O)c1ccc2ccccc2n1)C(=O)N[C@@H](Cc1ccccc1)[C@H](O)CN1CC[C@@H](OCc2ccncc2)C[C@H]1C(=O)NC(C)(C)C | - | C8166 | p24 | 0.075 µM | - | AZT-resistant | 90% |
| COC(=O)[C@@H]1C2CCC(C[C@@H]1OC(=O)c1ccccc1)N2C | - | SupT1 + Sup-T1 | p24 | 25 µg/mL | - | IIIB | <0% |
| OO | - | PBMC | p24 | 100 µM | - | BaL | 18% |
| CC(C)C(NS(=O)(=O)N(C)Cc1ccccn1)C(=O)N[C@@H](Cc1ccccc1)C(O)[C@H](Cc1ccccc1)NC(=O)C(NS(=O)(=O)N(C)Cc1ccccn1)C(C)C | - | MT-4 | cytopathic effect | 100 µM | - | IIIB | 0% |
| COc1c(C(=O)NCc2ccc(C)cc2)ccc2nc(-c3ccc([N+](=O)[O-])cc3)n(C)c(=O)c12 | - | TZM-bl | MTT | 10 µM | - | - | >0% |
| C/C(=C(/CCO)SSCC1CCCO1)N(C=O)Cc1cnc(C)nc1N | - | U-937/HIV-1(RF) + U-937 | p24 | 50 µM | - | RF | 60% |
| CCC(C)[C@H](NC(=O)[C@H](C(C)C)[C@@H](O)[C@H](O)[C@H](CC1CCCCC1)NC(=O)c1ccccc1SCCCCC[C@@H]1SC[C@@H]2NC(=O)NC21)C(=O)NCc1ccccn1 | - | PBMC | p24 | 0.001 µM | - | D34 | 2% |
| COC(=O)C(OC(C)=O)[C@H]1C(C)(C)[C@H](OC(C)=O)[C@]2(O)CC3=C(CC[C@]4(C)C3=CC(=O)O[C@H]4c3ccoc3)[C@@]1(C)C2=O | - | SupT1 | luciferase / luminescence | 100 µM | pseudotyped | NL4-3 | 0% |

For reference, 8 entries again:

CCCCC[C@H](O)/C=C/[C@H]1[C@H](O)CC(=O)[C@@H]1C/C=C\CCCC(=O)O ; cell line: C8166 ; read by: syncytia ; tested at: 40 µM ; strain: IIIB ; result: 0%
C#CCn1c2ccccc2c2cc(C(=O)C3CSCCN3)nc(C)c21 ; cell line: CEM-GFP ; read by: p24 / ELISA / antigen ; tested at: 21.46 µM ; strain: NL4-3 ; result: 0%
COC(=O)c1cc2c3ccccc3n3c(=O)ccc(n1)c23 ; cell line: CEM-GFP ; read by: p24 / ELISA / antigen ; tested at: 3.59 µM ; strain: NL4-3 ; result: 0%
CC(C)=CCCn1c2ccccc2c2cc(C(=O)C3CSCCN3)nc(C)c21 ; cell line: CEM-GFP ; read by: p24 / ELISA / antigen ; tested at: 19.76 µM ; strain: NL4-3 ; result: 0%
Nc1ccn([C@H]2CC[C@@H](CO)O2)c(=O)n1 ; cell line: HT4 + HT4-6C ; read by: syncytia ; tested at: 0.00316 µM ; strain: LAV-1 ; result: 41%
COC(=O)C(O)[C@H]1[C@]2(C)C[C@@]3(OC(=O)C(C)C)[C@]1(C)[C@H]1CC[C@]4(C)C(=CC(=O)O[C@H]4c4ccoc4)[C@@]1(O)[C@@]3(O)C(=O)[C@H]2OC(C)=O ; cell line: SupT1 ; read by: luciferase / luminescence ; tested at: 100 µM ; conditions: pseudotyped ; strain: NL4-3 ; result: 31.83%
Cc1c(-c2cnccn2)ssc1=S ; cell line: H9 ; read by: MTT / p24 ; tested at: 60 µM ; strain: IIIB ; result: 90%
CCCCCCCCCc1ccc(OCCOCCOCCOCCOCCOCCOCCOCCOCCO)cc1 ; cell line: MT-4 ; read by: XTT / p24 ; tested at: 10 µg/mL ; result: 100%